Anti-infective test results gathered from many reports (values: NIAID ChemDB through PubChem).

Shared fields: target-level tests

Inhibition is in % at the dose shown (toxicity tests: loss of growth or viability).

structure,strain or isolate,read by,dose,changes,agent,measure,target,value
Cc1cc(C(=O)c2ccccc2)c(-c2ccccc2)n1-c1ccc(C(=O)O)c(O)c1,,fluorescence,,,HIV-1,IC50,gp41,41.1 µg/mL
Nc1nc2c(ncn2[C@H]2CO[C@@H](COP(=O)(O)OP(=O)(O)OP(=O)(O)O)O2)c(=O)[nH]1,,radiometric,,RT-M184V,HIV,Ki,Reverse transcriptase,0.06 µM
O=C(O)CCc1ccc(-c2ccc(OCC(=O)O)cc2)cc1,,ELISA,,,HIV-1,IC50,gp41,>100 µg/mL
CC(C)(C#Cc1ccc(NC(=O)CSc2nnnn2-c2ccc(C3CC3)cc2Cl)c(Cl)c1)OCCN,WT,PicoGreen / fluorescence,,,HIV-1,IC50,Reverse transcriptase,<1 µM
CCN1c2ncc(CCOc3ccc(CC(=O)O)c4c3CCCC4)cc2C(=O)N(C)c2ccc(Cl)nc21,,nucleotide incorporation / radiometric,,RT-Y188L,HIV-1,fold resistance,Reverse transcriptase,1–10
CC(NC(=O)COC(C)(C)C#Cc1ccc(NC(=O)CSc2nnnn2-c2ccc(C(C)(C)C)cc2Cl)c(Cl)c1)C(=O)O,WT,PicoGreen / fluorescence,,,HIV-1,IC50,Reverse transcriptase,<1 µM
CC(=O)c1ccc(O)c2nc(/C=C/c3cc(O)c(O)c(Cl)c3)ccc12,HXB2,strand transfer / gel,,,HIV,IC50,Integrase,0.53 µM
CC(C)(C)c1ccc(-n2nnnc2SCC(=O)Nc2ccc(NC(=O)C3CCCCC3)cc2Cl)c(Cl)c1,,PicoGreen / fluorescence,,RT-K103 Y181C,HIV-1,IC50,Reverse transcriptase,<1 µM
CC(=O)c1cc(C)n(-c2ccc(C(=O)O)c(O)c2)c1-c1ccccc1,,fluorescence,,,HIV-1,IC50,gp41,500 µg/mL
Nc1ncnc2c1ncn2[C@H]1CC[C@@H](COP(=O)(O)OP(=O)(O)OP(=O)(O)O)O1,,,,RT-T215Y,HIV,fold resistance,Reverse transcriptase,1.3
CCN1c2ncc(CCOc3ccc(/C=C(\C)C(=O)O)c4ccccc34)cc2C(=O)Nc2c(C)ccnc21,,nucleotide incorporation / radiometric,,RT-Y188L,HIV-1,fold resistance,Reverse transcriptase,>10
COc1ccc(S(=O)(=O)O)cc1N=Nc1c(S(=O)(=O)O)cc2cc(Nc3nc(Nc4ccccc4)nc(Nc4cc(C)c(N=Nc5cc(S(=O)(=O)O)cc6cc(S(=O)(=O)O)cc(O)c56)cc4OC)n3)ccc2c1O,,ELISA,,,HIV-1,IC50,gp41,~1.2 µg/mL
CC[C@H](C)[C@H](NC(=O)[C@@H]1CCCN1C[C@H](Cc1ccccc1)NC(=O)[C@H](CC(N)=O)NC(=O)[C@H](CCC(N)=O)NC(=O)[C@H](CO)NC(=O)[C@@H](N)C(C)C)C(=O)N[C@H](C(=O)O)C(C)C,,,,,HIV-2,Ki,Protease,26.1 µM
CC(C)Cc1cc(-c2ccc(-c3ccc(CCCN)cc3CC(C)C)cc2C(C)C)ccc1OCCN,,ELISA,,,HIV-1,IC50,gp41,>100 µg/mL
CC[C@H](C)[C@H](NC(=O)[C@@H](NCC(O)[C@H](CC(C)C)NC(=O)[C@H](Cc1cnc[nH]1)N(C)C(=O)[C@H](Cc1ccccc1)NC(=O)[C@@H]1CCCN1C(=O)OC(C)(C)C)C(C)C)C(=O)NCc1ccccn1,,,,,HIV-2,Ki,Protease,>1 µM
Nc1ccn([C@H]2CC[C@@H](COP(=O)(O)OP(=O)(O)OP(=O)(O)O)O2)c(=O)n1,,,,RT-T215Y,HIV,fold resistance,Reverse transcriptase,3.33
O=C(COc1ccc(NC(=O)CSc2nnnn2-c2ccc(C3CC3)cc2Cl)c(Cl)c1)NCCc1ccc[n+]([O-])c1,,PicoGreen / fluorescence,,RT-K103 Y181C,HIV-1,IC50,Reverse transcriptase,<1 µM
CCN1c2ncc(CCOc3ccc4cc(CC(=O)O)ccc4c3C)cc2C(=O)N(C)c2cccnc21,,nucleotide incorporation / radiometric,,RT-V106A,HIV-1,fold resistance,Reverse transcriptase,1–10
CCCC[C@@H](CN[C@@H](CCC(N)=O)C(=O)N[C@@H](CCCN=C(N)N)C(N)=O)NC(=O)[C@H](CCCC)NC(=O)C(NC(=O)C(NC(C)=O)[C@@H](C)O)[C@@H](C)CC,,HPLC,,PR-L90M,HIV,IC50,Protease,<2.17 µM
CN1CCN(CC#Cc2ccc(NC(=O)CSc3nnnn3-c3ccc(C(C)(C)C)cc3Cl)c(Cl)c2)CC1,,PicoGreen / fluorescence,,RT-K103 Y181C,HIV-1,IC50,Reverse transcriptase,<1 µM
COCOC[C@@]12[C@H](O)C[C@@H](C)[C@]3(C[C@@H](c4ccoc4)OC3=O)[C@H]1CCC(=O)[C@]21CO1,,RNase H / fluorescence,100 µM,,HIV-1,inhibition,RNase H,20%
CC(C(=O)O)C(=O)NC(C)(C)C#Cc1ccc(NC(=O)CSc2nnnn2-c2ccc(C3CC3)cc2Cl)c(Cl)c1,WT,PicoGreen / fluorescence,,,HIV-1,IC50,Reverse transcriptase,<1 µM
CC(=O)c1ccc(O)c2nc(/C=C/c3cc(O)c(O)c([N+](=O)[O-])c3)ccc12,HXB2,3′ processing / gel,,,HIV,IC50,Integrase,0.225 µM
CNC(=O)NS(=O)(=O)c1ccc(NC(=O)CSc2nnnn2-c2ccc(C3CC3)cc2Cl)c(Cl)c1,,PicoGreen / fluorescence,,RT-K103 Y181C,HIV-1,IC50,Reverse transcriptase,<1 µM
O=C1O[C@H]2[C@@H]3OC(=O)c4cc(O)c(O)c(O)c4-c4c(cc(O)c(O)c4O)C(=O)OC[C@H]2O[C@@H](OC(=O)c2cc(O)c(O)c(O)c2)[C@@H]3OC(=O)c2cc(O)c(O)c3c2[C@@H]2C1=CC(=O)[C@](O)(O3)C2(O)O,,ELISA,,,HIV-1,IC50,gp120 + CD4,0.48 µg/mL
CC(C)(C)c1ccc(-n2nnnc2SCC(=O)Nc2ccc(NC(=O)C3CCCC3)cc2Cl)c(Cl)c1,WT,PicoGreen / fluorescence,,,HIV-1,IC50,Reverse transcriptase,<1 µM
COC(=O)c1cc(C)n(-c2ccc(C(=O)O)c(O)c2)c1-c1ccccc1,,fluorescence,,,HIV-1,IC50,gp41,500 µg/mL
CC(C)(O)C#Cc1ccc(NC(=O)CSc2nnnn2-c2cc(C#N)ccc2Cl)c(Cl)c1,,PicoGreen / fluorescence,,RT-K103 Y181C,HIV-1,IC50,Reverse transcriptase,<1 µM
CC(C)=CCC/C(C)=C/CC/C(C)=C/CC/C(C)=C/CC/C(C)=C/CC/C(C)=C/Cc1cc(O)ccc1O,,nucleotide incorporation,,,HIV-2,IC50,Reverse transcriptase,1.2 µM
CC(C)(C)c1ccc(-n2nnnc2SCC(=O)Nc2ccc(NS(=O)(=O)c3cccs3)cc2Cl)c(Cl)c1,WT,PicoGreen / fluorescence,,,HIV-1,IC50,Reverse transcriptase,<1 µM
CNC(=O)[C@@H](Cc1ccccc1)NP(=O)(O)OC[C@H]1O[C@@H](n2cc(C)c(=O)[nH]c2=O)C[C@@H]1N=[N+]=[N-],,fluorescence,,,HIV-1,IC50,Rev:RRE,0.35 µM
Cc1nnc(SCC(=O)Nc2ccc(-c3ccc(OCCN4CCCCC4)cc3)cc2Cl)n1-c1ccc(C2CC2)cc1Cl,WT,PicoGreen / fluorescence,,,HIV-1,IC50,Reverse transcriptase,<1 µM
CC(=O)c1ccc(O)c2nc(/C=C/c3ccc(C(=O)O)cc3[N+](=O)[O-])ccc12,HXB2,3′ processing / gel,,,HIV,IC50,Integrase,2.3 µM

The last 2 rows once more:

{"structure": "Cc1nnc(SCC(=O)Nc2ccc(-c3ccc(OCCN4CCCCC4)cc3)cc2Cl)n1-c1ccc(C2CC2)cc1Cl", "strain or isolate": "WT", "read by": "PicoGreen / fluorescence", "agent": "HIV-1", "measure": "IC50", "target": "Reverse transcriptase", "value": "<1 µM"}
{"structure": "CC(=O)c1ccc(O)c2nc(/C=C/c3ccc(C(=O)O)cc3[N+](=O)[O-])ccc12", "strain or isolate": "HXB2", "read by": "3′ processing / gel", "agent": "HIV", "measure": "IC50", "target": "Integrase", "value": "2.3 µM"}

Blank or dashed fields: not listed here. Lines come from different laboratories, so protocols vary. ICn: concentration for n% inhibition. Fold resistance has wild type as its base. a–b is a range or a potency band.